Data as given in article PMC10266979, “A pan-influenza antibody inhibiting neuraminidase via receptor mimicry” (2023).

How the values were obtained:
[1] = target: neuraminidase (N1) of influenza A virus A/Alabama/03/2020, NA: H275 (H1N1) (influenza A virus A/Alabama/03/2020 (H1N1))
[2] = target: neuraminidase (N1) of influenza A virus A/California/2009 (H1N1) (influenza A virus A/California/2009 (H1N1))
[3] = target: neuraminidase (N1) of influenza A virus A/Indiana/02/2020 (H1N1) (influenza A virus A/Indiana/02/2020 (H1N1))
[4] = target: neuraminidase (N2) of influenza A virus A/HongKong/1968 (H3N2) (influenza A virus A/Hong Kong/1/1968 (H3N2)) (UniProt Q91MA2)
[5] = target: neuraminidase (N2) of influenza A virus A/Singapore/INFIMH-16-0019/2016 (H3N2) (influenza A virus A/Singapore/INFIMH-16-0019/2016 (H3N2))
[6] = target: neuraminidase of influenza B virus B/Laos/0654/2016, NA: 134N (Victoria) (influenza B virus B/Laos/0654/2016 (Victoria))
[7] = target: Recombinant neuraminidase from B/Massachusetts/02/2012 (Yamagata) (influenza B virus B/Massachusetts/02/2012); experiment: cryo-EM structure

Substance | In vitro neutralization IC50; […] mAb as IgG [1] | In vitro neutralization IC50; virus A/California/2009 (H1N1); mAb as IgG [2] | In vitro neutralization IC50; virus A/Indiana/02/2020 (H1N1); mAb as IgG [3] | In vitro neutralization IC50; virus A/HongKong/1968 (H3N2); mAb as IgG [4] | In vitro neutralization IC50; […] mAb as IgG [5] | In vitro neutralization IC50; […] mAb as IgG [6] | stoichiometry N [7]
1G01 Fab | 20.1 µg/mL | 0.147 µg/mL | 34.4 µg/mL | 0.023 µg/mL | > 50 µg/mL | – | –
FNI9 Fab | 0.283 µg/mL | 0.147 µg/mL | 0.161 µg/mL | 0.056 µg/mL | 0.162 µg/mL | – | –
FNI17 Fab | 0.06 µg/mL | 0.056 µg/mL | – | 0.104 µg/mL | > 50 µg/mL | 0.017 µg/mL | –
FNI19 Fab | 0.057 µg/mL | 0.094 µg/mL | 0.15 µg/mL | 0.083 µg/mL | 0.916 µg/mL | 0.026 µg/mL | –
Recombinant neuraminidase from B/Massachusetts/02/2012 (Yamagata) (enzyme) | – | – | – | – | – | – | 4
